In patent publication US10150742B2, “Substituted heterocyclic compounds for treating or preventing viral infections” (President and Fellows of Harvard College, priority 2013, dated 2018):

Tested on: 7-148-6-resistant DENV2 quasispecies
Conditions: compared to DMSO-passaged control strain

## NC(=O)c1cccc(-c2cc(Nc3ccc(OC(F)(F)F)cc3)ncn2)c1 [GNF-2]
  sensitivity of 7-148-6-resistant DENV2 to compound: still be sensitive
